PubChem BioAssay AID624099 – ICCB-Longwood – 2012
Here is a random part of about 21,000 reagents tested. 497 of all reagents (2.4%) were called active. 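Higher z means weaker E2 silencing; only reporter increases were scored, and knock-downs that hurt cell survival may mask genuine repressor factors.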 The numbers tell different reagents against one gene apart. Reagent sequences are not shown.

Screen: 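Human genes that papillomavirus E2 requires to repress the HPV18 LCR promoter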 (primary screen)
Cell system: human C33A cervical carcinoma cells (HPV-negative) stably expressing BPV1 E2 and an HPV18 LCR luciferase reporter
Knock-down reagent: siRNA pool against human genes, 40 nM
Time to read-out: 72 h
Detection: 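Per-well luciferase luminescence, z-scored on each plate against the plate mean and SD with control wells left out, then averaged across three replicate plates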
Reading the numbers: mean z-score and z-score: higher = stronger reporter signal, weaker E2 silencing
Active means: 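Mean z ≥ 2 together with z ≥ 2 in two or more of the three replicates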

| gene | pool no. | mean z-score | z-score, replicate A | z-score, replicate B | z-score, replicate C | activity call |
| --- | --- | --- | --- | --- | --- | --- |
| STX8 | 1 | 1.15 | 1.59 | 1.22 | 0.64 | inactive |
| OPRD1 | 1 | -0.5 | -0.7 | -0.38 | -0.42 | inactive |
| NID1 | 1 | -0.75 | -0.44 | -0.77 | -1.05 | inactive |
| COL1A1 | 1 | 0.3 | 0.4 | 0.28 | 0.23 | inactive |
| NPR2 | 1 | -0.12 | -0.04 | 0.16 | -0.47 | inactive |
| ABCC5 | 1 | -0.33 | -0.03 | -0.37 | -0.6 | inactive |
| LPXN | 1 | -0.82 | -0.84 | -0.94 | -0.69 | inactive |
| TRDN | 1 | -0.51 | -0.62 | -0.55 | -0.35 | inactive |
| IL6R | 1 | -0.22 | -0.12 | -0.41 | -0.12 | inactive |
| TAFAZZIN | 1 | 0.12 | -0.18 | -0.17 | 0.71 | inactive |
| RPS15A | 1 | -1.7 | -1.7 | -1.83 | -1.56 | inactive |
| GATAD1 | 1 | -0.44 | -0.4 | -0.89 | -0.04 | inactive |
| ZNF169 | 1 | 0.49 | 0.64 | 0.61 | 0.23 | inactive |
| MBTPS1 | 1 | -0.74 | -0.55 | -0.99 | -0.67 | inactive |
| LINC02433 | 1 | -0.53 | -0.38 | -0.48 | -0.73 | inactive |
| RGN | 1 | 0.34 | 0.24 | 0.36 | 0.43 | inactive |
| IGSF9B | 1 | -0.31 | -0.5 | 0.04 | -0.47 | inactive |
| IGSF9B | 2 | -0.7 | -0.46 | -0.74 | -0.91 | inactive |
| MYBPH | 1 | 0.7 | 0.7 | 0.75 | 0.66 | inactive |
| CEACAM5 | 1 | 0.18 | 0.39 | 0.41 | -0.26 | inactive |
| PGAM2 | 1 | -0.72 | -0.31 | -0.84 | -1.02 | inactive |
| SIX4 | 1 | 0.04 | -0.19 | 0.12 | 0.19 | inactive |
| USP9Y | 1 | 0.14 | 0.05 | 0.23 | 0.15 | inactive |
| ABCC13 | 1 | -0.88 | -0.7 | -0.79 | -1.16 | inactive |
| CFI | 1 | -0.46 | -0.13 | -0.42 | -0.82 | inactive |
| AKAP17A | 1 | -0.52 | -0.54 | -0.53 | -0.48 | inactive |
| LYAR | 1 | -1.1 | -0.84 | -1.27 | -1.2 | inactive |
| BLOC1S4 | 1 | 3.68 | 3.79 | 3.58 | – | active |
| CEP43 | 1 | -1.16 | -1.4 | -1.01 | -1.08 | inactive |
| SSU72L1 | 1 | 0.13 | 0.07 | 0.35 | -0.03 | inactive |
| SLC30A2 | 1 | 0.69 | 0.54 | 0.98 | 0.53 | inactive |
| SDHC | 1 | 0.08 | 0.15 | 0.39 | -0.29 | inactive |
| GALNT2 | 1 | -0.15 | -0.17 | -0.07 | -0.19 | inactive |
| MCM3AP | 1 | -0.2 | -0.45 | 0.02 | -0.17 | inactive |
| IL10RA | 1 | 0.5 | 0.52 | 0.5 | 0.47 | inactive |
| TYROBP | 1 | 0.86 | 0.63 | 0.76 | 1.19 | inactive |
| CRTC3 | 1 | -0.79 | -0.62 | -0.99 | -0.76 | inactive |
| SH3PXD2A | 1 | -0.35 | -0.28 | -0.13 | -0.64 | inactive |
| MYO3A | 1 | 2.15 | 2.02 | 2.11 | 2.32 | active |

3 entries from above, showing only “z-score, replicate B”.
LYAR: -1.27
BLOC1S4: 3.58
CEP43: -1.01
